Results of unrelated studies side by side (data: NIAID ChemDB).

Common to all: growth or infection tests; agent: Mycobacterium tuberculosis

Fold resistance: result on the changed form divided by that on wild type. ECn is the concentration giving n% inhibition of infection, replication or growth. MIC bound comes from a single tested concentration. Percent inhibition refers to the dose given; in toxicity tests it is the harm to the cells. Neighbouring rows are from separate reports. Blank or dashed fields: not listed here. A number after MIC or MFC names an inhibition level or a share of isolates.

structure,changes,strain or isolate,setting,read by,dose,endpoint,value
C[C@@H]1CN(c2c(F)c(N)c3c(=O)c(C(=O)O)cn(C4CC4)c3c2F)C[C@H](C)N1,-,H37Rv,-,-,-,MIC,0.2 µg/mL
COc1ccc(C(=O)/C=C/c2ccc(F)cc2)c(F)c1,-,H37Rv,21 d,resazurin,-,MIC,32 µg/mL
Cc1cc(C(=O)NN)no1,-,H37Rv,-,BACTEC,-,MIC bound,>12.5 µg/mL
CO[C@H]1/C=C/O[C@@]2(C)Oc3c(C)c(O)c4c(O)c(c5c(c4c3C2=O)NC2(CCN(CC(C)C)CC2)N=5)=NC(=O)/C(C)=C\C=C\[C@H](C)[C@H](O)[C@@H](C)[C@@H](O)[C@@H](C)[C@H](OC(C)=O)[C@@H]1C,-,2227 (rifampin-resistant),-,-,-,MBC,0.2 µg/mL
O=C(/C=C/c1ccc(F)cc1)c1ccc(F)cc1,-,H37Rv,14 d,resazurin,-,MIC,32 µg/mL
CCN1CCc2c(sc(NC(=O)c3c(F)c(F)c(F)c(F)c3F)c2C(=O)NC)C1,-,-,-,low oxygen,-,EC50,1.9 µM
COc1ccc(C(=O)/C=C/c2ccco2)c(O)c1,-,H37Rv,-,-,-,EC50,>12.5 µg/mL
CCOC(=O)c1c(NC(=O)c2c(F)c(F)c(F)c(F)c2F)sc2c1CCNC2=O,katG Y155 truncation mutant,H37Rv,-,turbidity,-,EC90,4.7 µM
CCOc1ccc2nccc([C@@H](O)[C@@H]3C[C@@H]4CCN3C[C@@H]4CC)c2c1,-,H37Rv,-,resazurin,-,MIC bound,>6.25 µg/mL
CN[C@@H]1[C@H](O[C@H]2[C@H](O[C@H]3[C@H](O)[C@@H](O)[C@H](N=C(N)N)[C@@H](O)[C@@H]3N=C(N)N)O[C@@H](C)[C@]2(O)C=O)O[C@@H](CO)[C@H](O)[C@H]1O,-,H37Rv,-,-,-,MIC,<2 µg/mL
CC1COc2c(N3CCN(C)CC3)c(F)cc3c(=O)c(C(=O)O)cn1c23,-,90-0145 (drug-susceptible),-,-,-,MIC,0.5 µg/mL
Cc1ccc(S(=O)(=O)Nn2c(S)c(C#N)c(-c3ccc([N+](=O)[O-])cc3)c(C#N)c2=O)cc1,-,H37Rv,-,resazurin,-,MIC bound,>6.25 µg/mL
CO[C@H]1/C=C/O[C@@]2(C)Oc3c(C)c(O)c4c(O)c(c5c(c4c3C2=O)NC2(CCN(CC(C)C)CC2)N=5)=NC(=O)/C(C)=C\C=C\[C@H](C)[C@H](O)[C@@H](C)[C@@H](O)[C@@H](C)[C@H](OC(C)=O)[C@@H]1C,-,2257 (rifampicin-susceptible),-,-,-,MIC,0.062 µg/mL
O=c1ccc(=O)c2c(=O)c3cc4[nH]c5ccccc5[nH]c4cc3c(=O)c12,-,H37Rv,-,BACTEC,12.5 µg/mL,inhibition,20%
Oc1[nH]c2ccc(OC(F)(F)F)cc2c1N=NC(=S)Nc1ccccc1,-,H37Rv,-,broth dilution / resazurin,-,EC90,>100 µg/mL
CC1C2c3ccccc3C(c3ccccc32)C1CN1C(CCO)COC1c1ccccc1,-,H37Rv,-,BACTEC,-,MIC bound,>12.5 µg/mL
CCN1CCc2c(sc(NC(=O)c3c(F)c(F)c(F)c(F)c3F)c2C#N)C1,katG Y155 truncation mutant,H37Rv,-,turbidity,-,EC50,10 µM
CC(=O)NC[C@H]1CN(c2ccc(N3CCOCC3)c(F)c2)C(=O)O1,G2270T,AZD5847-resistant 8.10,-,-,-,MIC,8 µg/mL
Cc1ccc2[nH]c(O)c(N=NC(=S)Nc3ccc(Cl)cc3)c2c1,-,H37Rv,-,broth dilution / resazurin,-,EC90,3.568 µg/mL
CO[C@H]1/C=C/O[C@@]2(C)Oc3c(C)c(O)c4c(O)c(c(/C=N/N5CCN(C)CC5)c(O)c4c3C2=O)NC(=O)/C(C)=C\C=C\[C@H](C)[C@H](O)[C@@H](C)[C@@H](O)[C@@H](C)[C@H](OC(C)=O)[C@@H]1C,-,H37Rv,-,-,-,MIC,0.08 µg/mL
Cc1ccc(NC(=S)N=Nc2c(O)n(C)c3ccc(OC(F)(F)F)cc23)cc1,-,H37Rv,-,broth dilution / resazurin,-,EC90,>100 µg/mL
NCC[C@H](O)C(=O)N[C@@H]1C[C@H](N)[C@@H](O[C@H]2O[C@H](CN)[C@@H](O)[C@H](O)[C@H]2O)[C@H](O)[C@H]1O[C@H]1O[C@H](CO)[C@@H](O)[C@H](N)[C@H]1O,-,92-0492 MDR (INH RIF-resistant),-,-,-,MIC,1 µg/mL
COC(=O)NCCCCCCNC(=O)OC,-,H37Rv,-,resazurin,-,MIC bound,>6.25 µg/mL
Cn1c(O)c(N=NC(=S)NCc2ccccc2)c2cc(OC(F)(F)F)ccc21,-,H37Rv,-,broth dilution / resazurin,-,EC50,7.299 µg/mL
NNC(=O)c1ccncc1,-,90-0233 (isoniazid streptomycin-resistant),-,-,-,MIC,2.5 µg/mL
COc1ccc(C(=O)/C=C/c2ccccc2Cl)c(F)c1,-,H37Rv,14 d,MTT,-,MIC,32 µg/mL
CCCCNC(=O)c1c(N)sc2c1CCCC2,-,H37Rv,-,resazurin,-,MIC,>100 µg/mL
CC[C@H]1OC(=O)[C@H](C)[C@@H](O[C@H]2C[C@@](C)(OC)[C@@H](O)[C@H](C)O2)[C@H](C)[C@@H](O[C@@H]2O[C@H](C)C[C@H](N(C)C)[C@H]2O)[C@](C)(OC)C[C@@H](C)C(=O)[C@H](C)[C@@H](O)[C@]1(C)O,-,9135,-,-,-,MIC,>4 µg/mL
CC1COc2c(N3CCN(C)CC3)c(F)cc3c(=O)c(C(=O)O)cn1c23,-,07-9206,-,agar,-,MIC,0.5 µg/mL
Cc1ccc2c(c1)c(N=NC(=S)Nc1ccc([N+](=O)[O-])cc1)c(O)n2C,-,H37Rv,-,broth dilution / resazurin,-,EC90,>100 µg/mL
COC1C[C@H](C)[C@@H](OC)C2=CC(=O)C=C(NC(=O)/C(C)=C/C=C\[C@H](C)C(OC(N)=O)/C(C)=C/[C@@H](C)[C@@H]1OC)C2=O,-,H37Rv,-,BACTEC,-,MIC bound,≤12.5 µg/mL
CC(C)N=c1cc2n(-c3ccc(Cl)cc3)c3ccccc3nc-2cc1Nc1ccc(Cl)cc1,-,92-0492 (MDR),-,-,-,MIC,0.4 µg/mL
CC[C@H]1OC(=O)[C@H](C)[C@@H](O[C@H]2C[C@@](C)(OC)[C@@H](O)[C@H](C)O2)[C@H](C)[C@@H](O[C@@H]2O[C@H](C)C[C@H](N(C)C)[C@H]2O)[C@](C)(OC)C[C@@H](C)C(=O)[C@H](C)[C@@H](O)[C@]1(C)O,-,H37Rv,-,-,-,MIC,8 µg/mL
O=C(/C=C/c1ccccc1)c1ccc(F)cc1,-,H37Rv,14 d,MTT,-,MIC,32 µg/mL
Cl.Cl.O=C(Nc1ccc(C2=NCCN2)cc1)c1cccc(NC(=S)Nc2ccc(C3=NCCN3)cc2)c1,-,H37Rv,-,BACTEC,12.5 µg/mL,inhibition,83%
CO[C@H]1/C=C/O[C@@]2(C)Oc3c(C)c(O)c4c(=O)c(c5oc6cc(N7CCN(CC(C)C)CC7)cc(=O)c6nc5c4c3=C2O)NC(=O)/C(C)=C\C=C\[C@H](C)[C@H](O)[C@@H](C)[C@@H](O)[C@@H](C)[C@H](OC(C)=O)[C@@H]1C,-,H37Rv-pAV (Val516 mutation),-,-,-,MIC,≤0.015 µg/mL
CCc1nc2ccc(C)cc2n1CCCCNc1ccc(C)cc1,QcrB M342T,H37Rv,-,turbidity / fluorescence,-,fold resistance,55
CCN=c1cc2n(-c3ccc(C(F)(F)F)cc3)c3ccccc3nc-2cc1Nc1ccc(C(F)(F)F)cc1,-,2230,multidrug-resistant,-,-,MIC,≤0.06 µg/mL
O=C(/C=C/c1ccccc1)c1ccccc1,-,H37Rv,21 d,resazurin,-,MIC,32 µg/mL
O=c1nc2n(c3ncccc13)CC=NN2,-,H37Rv,-,BACTEC,-,MIC,≥12.5 µg/mL
CCOC(=O)c1c(NC(=O)c2c(F)c(F)c(F)c(F)c2F)sc2c1CCOC2,-,ATCC35838,-,turbidity,-,EC50,0.085 µM
COc1ccc(C(O)c2cc(-c3ccncc3)c(C(O)c3ccc(OC)cc3)nn2)cc1,-,H37Rv,-,BACTEC,12.5 µg/mL,inhibition,7%
CCc1nc2ccc(C)cc2n1CCCCOc1ccccc1,Rv1339 V90M,H37Rv,-,turbidity / fluorescence,-,fold resistance,1.3
CC(=O)NC[C@H]1CN(c2ccc(N3CCOCC3)c(F)c2)C(=O)O1,SM-resistant,Clinical isolate BRF 7,-,resazurin,-,MIC,0.25 µg/mL
O=C1C(Cl)=C(Nc2cccc3cc4ccccc4nc23)C(=O)c2ccccc21,-,H37Rv,-,BACTEC,12.5 µg/mL,inhibition,66%
CC(=O)OC[C@H]1O[C@@H](Oc2cc(OC(C)=O)c3c(=O)cc(-c4ccc(OC(C)=O)cc4)oc3c2C2C(=O)c3c(OC(C)=O)cc(OC(C)=O)cc3OC2c2ccc(OC(C)=O)cc2)[C@H](OC(C)=O)[C@@H](OC(C)=O)[C@@H]1OC(C)=O,-,H37Rv,-,-,-,EC50,>12.5 µg/mL
C/C=C/C/C=C/CCC(=O)[C@H]1O[C@H]1C(N)=O,-,90-0216 (DRUG-SUS),-,-,-,MIC,2.5 µg/mL
CCc1nc2ccccc2n1CCCCN1CCOCC1,-,H37Rv,-,turbidity / fluorescence,-,MIC99,>20 µM
O=C([C@@H](O)CO)N1CC=C(c2c(F)cc(N3C[C@H](COc4ccon4)OC3=O)cc2F)CC1,-,H37Rv CDC1551,-,broth dilution,-,MIC,0.5 µg/mL
CCc1nc2ccccc2n1CCCCOc1ccc(Cl)cc1,QcrB M342T,H37Rv,-,turbidity / fluorescence,-,fold resistance,>7.1
Oc1[nH]c2ccc(OC(F)(F)F)cc2c1N=NC(=S)NC1CCCCC1,-,H37Rv,-,broth dilution / resazurin,-,EC90,>100 µg/mL
CC(C)N=c1cc2n(-c3ccc(Cl)cc3)c3ccccc3nc-2cc1Nc1ccc(Cl)cc1,-,92-0492 MDR (INH RIF-resistant),-,-,-,MIC,0.4 µg/mL
O=C(/C=C/c1ccc(I)cc1)c1ccccc1O,-,H37Rv,-,-,-,EC50,>12.5 µg/mL
O=C(/C=C/c1ccccc1Cl)c1ccc(F)cc1,-,H37Rv,7 d,MTT,-,MIC,32 µg/mL
CCNC(=O)c1c(NC(=O)c2c(F)c(F)c(F)c(F)c2F)sc2c1CCN(CC)C2,rpoB S522L mutant,H37Rv,-,turbidity,-,MIC,8.5 µM
CC(=O)N/N=C(\N)c1nc2c(n3nc(C)nc13)CCCC2,-,H37Rv,-,BACTEC,-,MIC bound,>12.5 µg/mL
Cc1ccc(NC(=S)N=Nc2c(O)n(C)c3ccc(C)cc23)cc1,-,H37Rv,-,broth dilution / resazurin,-,EC50,>100 µg/mL
C[C@H]1OC(=O)N(CCCC=C2SCCCS2)C1=O,-,H37Rv,-,BACTEC,-,MIC bound,>12.5 µg/mL
Cc1ccc2c(c1)c(N=NC(=S)Nc1ccccc1Br)c(O)n2C,-,H37Rv,-,broth dilution / resazurin,-,EC50,>100 µg/mL
O=C(N/N=C/C=C/c1ccccc1)C(O)C(O)C(=O)N/N=C/C=C/c1ccccc1,-,H37Rv,-,BACTEC,-,MIC,≥12.5 µg/mL
N#Cc1c(NC(=O)c2c(F)c(F)c(F)c(F)c2F)sc2c1CCOC2,-,ATCC35838,-,turbidity,-,EC50,3.4 µM
N=C(N)SCc1ccc(C(=O)NN2C(=O)c3ccccc3C2=O)cc1,-,H37Rv,-,BACTEC,-,MIC bound,>12.5 µg/mL
CO[C@H]1/C=C/O[C@@]2(C)Oc3c(C)c(O)c4c(=O)c(c5oc6cc(N7CCN(C(C)C)CC7)cc(=O)c6nc5c4c3=C2O)NC(=O)/C(C)=C\C=C\[C@H](C)[C@H](O)[C@@H](C)[C@@H](O)[C@@H](C)[C@H](OC(C)=O)[C@@H]1C,-,2227 (rifampin-resistant),-,-,-,MBC,0.2 µg/mL
O=S1(=O)C(=C(c2ccccc2)c2ccccc2)S(=O)(=O)c2ccccc21,-,H37Rv,-,BACTEC,-,MIC bound,>6.25 µg/mL
COc1ccc(C2Oc3ccc(Br)cc3C(=O)C2O)cc1,-,-,-,-,12.5 µg/mL,inhibition,24%
CCOC(=O)C1=C(/C=C/c2cccc(Cl)c2)O/C(=C\c2cccc(Cl)c2)C1=O,-,H37Rv,-,BACTEC,-,MIC bound,>12.5 µg/mL
CC[C@@H](CO)NCCN[C@@H](CC)CO,-,H37Rv,-,-,-,MIC,0.5 µg/mL
CCOC(=O)C(C1=C(O)c2ccccc2C(=O)C1=O)C1=C(O)c2ccccc2C(=O)C1=O,-,H37Rv,-,BACTEC,-,MIC bound,>12.8 µg/mL
NNC(=O)c1ccncc1,-,H37Rv (ATCC 35811),-,broth dilution,-,MIC,0.03 µg/mL
CO[C@H]1C[C@@H]2\C=C(C)/C=C/C=C\C(=O)N[C@H](c3ccccc3)C/C=C/CC[C@H](O)CC(=O)C2=C1O,-,H37Rv,-,BACTEC,-,MIC,3.13 µg/mL
NCC[C@H](O)C(=O)N[C@@H]1C[C@H](N)[C@@H](O[C@H]2O[C@H](CN)[C@@H](O)[C@H](O)[C@H]2O)[C@H](O)[C@H]1O[C@H]1O[C@H](CO)[C@@H](O)[C@H](N)[C@H]1O,-,90-0216 (DRUG-SUS),-,-,-,MIC,0.5 µg/mL